For one molecule, koff and kon results are on record in paper PMC12714728 (npj Viruses, 2025).

This assay concerns the target hemagglutinin (HA) ectodomain of A/New Caledonia/20/1999 (H1N1) (influenza A virus A/New …, biotin on the BirA site). Description: SPR. The conditions noted are these: both partners purified.

B1: cyclic peptide CP13 (peptide)
peptide: CYRDPLGVAGEMC
modifications: disulfide between the two Cys (sidechain-sidechain cyclization)
On to B1, for which the off-rate (koff) (usually the rate constant with which the complex falls apart) amounted to 1.09 s⁻¹ and the kon (usually a measure of how fast the partners come together) worked out at 28400 M⁻¹ s⁻¹.
